Measured values from several laboratories, pooled; numbers as filed in NIAID ChemDB.

Common to all: whole-cell or culture tests; species: HIV-1; endpoint: EC50

ECn: concentration that inhibits the pathogen or its effect by n%.

SMILES	changes	cells	conditions	strain or isolate	value
CC(C)[C@H](NC(=O)OCc1ccccc1)C(=O)N[C@@H](Cc1ccccc1)[C@@H](O)[C@H](CO)[C@H](Cc1ccccc1)NC(=O)[C@@H](NC(=O)OCc1ccccc1)C(C)C	-	MT-4	-	IIIB	3.7 µM
CC(C)[C@H](NC(=O)NCc1ccccn1)C(=O)N[C@@H](Cc1ccccc1)C(=O)C(F)(F)CCc1ccccc1	-	MT-4	-	IIIB	7.6 µM
Cc1cn([C@H]2C[C@H](N=[N+]=[N-])[C@@H](COC(=O)CCOCCCCCCCCCl)O2)c(=O)[nH]c1=O	-	CEM + CEM-SS	-	IIIB	0.082 µM
O=C(NCCCCCN1C(=O)N(CCCCCNC(=O)c2ccncc2)[C@H](Cc2ccccc2)[C@H](O)[C@@H](O)[C@H]1Cc1ccccc1)c1ccncc1	-	MT-2	-	-	<9.903 µM
Nc1nc2ccc(CN3C(=O)N(Cc4ccc5nc(N)sc5c4)[C@H](Cc4ccccc4)[C@H](O)[C@@H](O)[C@H]3Cc3ccccc3)cc2s1	-	MT-2	-	RF	<0.27 µM
Cn1c2ccccc2c2c1cc(C#N)c(=O)n2-c1ccc([N+](=O)[O-])cc1	TAM2 (D67N K70R T215F K219Q)	MT-2	-	HXB2	262.3 µM
CC(C)(O)[C@H](O)COc1c2occc2cc2ccc(=O)oc12	-	H9	-	-	0.115 µg/mL
CC(C)(C)NC(=O)[C@@H]1C[C@@H]2CCCC[C@@H]2CN1C[C@@H](O)[C@H](Cc1ccccc1)NC(=O)[C@@H](N)C(C)(C)S(C)(=O)=O	-	-	-	-	0.099 µM
O=C1N(CCCCCO)[C@H](Cc2ccccc2)[C@H](O)[C@@H](O)[C@@H](Cc2ccccc2)N1Cc1ccc(CO)cc1	-	MT-2	-	-	<0.108 µM
Nc1ncnc2c1ncn2[C@H]1[C@H](O)[C@H](O)[C@@H](OCP(=O)(O)O)C12CC2	-	-	-	WILD TYPE	90 µM
CCN1c2ncc(CCc3ccc(OCP(=O)(O)O)cc3)cc2C(=O)N(C)c2cccnc21	Y181C	-	-	-	>5 µM
CC(C)=CCN1Cc2cc(Cl)cc3[nH]c(=S)n(c23)C[C@@H]1C	RT-K70R K103N	MT-4	-	-	<3 µM
O=C(Cc1cccnc1)NCCCCCN1C(=O)N(CCCCCNC(=O)Cc2cccnc2)[C@H](Cc2ccccc2)[C@H](O)[C@@H](O)[C@H]1Cc1ccccc1	-	MT-2	-	-	<3.129 µM
CCOC(=O)C(O)(c1c[nH]c2ccc(Br)cc12)C(F)(F)F	-	TZM-bl	-	IIIB	0.093 µM
O=C(O)P(=O)(O)O	-	HT4LACZ-1 + HT4 LacZ-1	-	HX	41 µM
CC(C)(C)NC(=O)[C@@H]1C[C@@H]2CCCC[C@@H]2CN1C[C@@H](O)[C@H](Cc1ccccc1)NC(=O)[C@@H](NC(=O)COc1cccnc1)C(C)(C)S(C)(=O)=O	PR-L101I I84V L90M	-	-	-	0.017 µM
CCOC(=O)C(O)(c1c[nH]c2ccc(C#N)cc12)C(F)(F)F	-	TZM-bl	-	IIIB	0.445 µM
Cc1cn([C@H]2C[C@H](N=[N+]=[N-])[C@@H](COC(=O)CCCCCCCCCCCBr)O2)c(=O)[nH]c1=O	-	CEM + CEM-SS	-	IIIB	0.0032 µM
Nc1ncnc2c1ncn2/C=C1/C[C@@H]1CO	-	CEM + CEM-SS	-	-	>100 µM
C[C@H]1[C@H](CO)C=C[C@@H]1n1ccc(N)nc1=O	-	MT-4	-	-	>100 µg/mL
O=C1N(Cc2ccc3[nH]ccc3c2)[C@H](Cc2ccccc2)[C@H](O)[C@@H](O)[C@@H](Cc2ccccc2)N1Cc1ccc2[nH]ccc2c1	-	MT-2	-	RF	<0.19 µM
CCOC(=O)c1cccc(CN2C(=O)N(CCCCCO)[C@H](Cc3ccccc3)[C@H](O)[C@@H](O)[C@H]2Cc2ccccc2)c1	-	MT-2	-	-	<0.365 µM
Cc1cn([C@H]2C[C@H](N=[N+]=[N-])[C@@H](CO)O2)c(=O)[nH]c1=O	-	PBMC	-	LAI	0.004 µM
CO[P@](=O)(c1cc(C)cc(/C=C/C#N)c1)c1c(C(N)=O)[nH]c2ccc(Cl)cc12	-	MOLT-4	-	IIIB	0.0006 µM
O=C1N(Cc2ccc3ncoc3c2)[C@H](Cc2ccccc2)[C@H](O)[C@@H](O)[C@@H](Cc2ccccc2)N1Cc1ccc2ncoc2c1	-	MT-2	-	RF	<0.44 µM
CC(C)=CCOc1c2occc2cc2ccc(=O)oc12	-	H9	-	-	<0.1 µg/mL
Cc1cn([C@H]2C[C@H](N=[N+]=[N-])[C@@H](COC(=O)CCCCCCCCCCCc3ccccc3)O2)c(=O)[nH]c1=O	-	CEM + CEM-SS	-	IIIB	0.1055 µM
C[C@H](CC(=O)CC(C)(C)O)[C@H]1CC[C@@]2(C)C3C(=O)C=C4C(CCC(=O)C4(C)C)[C@]3(C=O)CC[C@]12C	-	C8166	-	IIIB	11.4 µg/mL
COc1ccc(S(=O)(=O)NC(N)=NCCC[C@H](NC(=O)N[C@@H](Cc2ccccc2)C(=O)OC(C)(C)C)C(=O)N[C@H](C(=O)N[C@H](COCc2ccccc2)Cc2ccccc2)C(C)C)cc1	-	MT-4	-	-	>100 µM
CC(C)(C)NC(=O)[C@@H]1C[C@@H]2CCCC[C@@H]2CN1C[C@@H](O)[C@H](Cc1ccccc1)NC(=O)CC(C)(C)S(C)(=O)=O	-	-	-	-	0.25 µM
Nc1nc2c(ncn2CCOCP(=O)(O)O)c(=O)[nH]1	-	-	-	-	0.7 µM
CC(C)[C@H](NC(=O)OCc1ccccc1)C(=O)N[C@@H](Cc1ccccc1)[C@H](O)[C@@H](CO)[C@H](Cc1ccccc1)NC(=O)[C@@H](NC(=O)OCc1ccccc1)C(C)C	-	MT-4	-	IIIB	>10 µM
CC(=O)SCCOP(=O)(OCCSC(C)=O)OC[C@@H]1CC[C@H](n2cnc3c(N)ncnc32)O1	-	Monocytes/macrophages	-	-	0.00001 µM
O=C1N(CCCCCO)[C@H](Cc2ccccc2)[C@H](O)[C@@H](O)[C@@H](Cc2ccccc2)N1CCCCCO	-	MT-2	-	-	<0.953 µM
Nc1ccn([C@H]2CC[C@@H](CO)O2)c(=O)n1	ddI-resistant	MT-4	clinical isolate	Clinical isolate	0.45 µM
Nc1ccn([C@H]2CC[C@@H](CO)O2)c(=O)n1	-	PBMC	-	LAV	0.011 µM
C[C@H](C(=O)O)[C@H]1CC[C@@]2(C)C3C(=O)[C@H]4O[C@]45C(CCC(=O)C5(C)C)[C@]3(C=O)CC[C@]12C	-	C8166	-	IIIB	59.1 µg/mL
CC(C)[C@H](NC(=O)OCc1ccccc1)C(=O)N[C@@H](Cc1ccccc1)[C@H](O)[C@@H](CO)[C@H](Cc1ccccc1)NC(=O)[C@H](CC(N)=O)NC(=O)OCc1ccccc1	-	MT-4	-	IIIB	>10 µM
COC(=O)CCCCCN1C(=O)N(CCCCCC(=O)OC)[C@H](Cc2ccccc2)[C@H](O)[C@@H](O)[C@H]1Cc1ccccc1	-	MT-2	-	-	<30.9 µM
Cc1cn([C@H]2C[C@H](N=[N+]=[N-])[C@@H](COP(=O)(O)O)O2)c(=O)[nH]c1=O	-	CEM + CEM-SS	-	IIIB	0.007 µM
O=C(O)[C@@H](CC1CCC1)N1C[C@H](CN2CCC(CCCc3ccccc3)CC2)[C@@H](c2ccccc2)C1	-	PBMC	-	BaL	<0.008 µM
CC(C)(C)[C@H](N)C(=O)N[C@@H](Cc1ccccc1)[C@H](O)[C@@H](CO)[C@H](Cc1ccccc1)NC(=O)[C@@H](N)C(C)(C)C	-	MT-4	-	IIIB	>10 µM
COC(=O)C(O)(c1c[nH]c2ccc(F)cc12)C(F)(F)F	-	TZM-bl	-	IIIB	85.6 µM
CC(C)(C)[C@H](NC(=O)c1nc2ccccc2[nH]1)C(=O)N[C@@H](Cc1ccccc1)[C@@H](O)[C@H](CO)[C@H](Cc1ccccc1)NC(=O)[C@@H](NC(=O)c1nc2ccccc2[nH]1)C(C)(C)C	-	MT-4	-	IIIB	>10 µM
COC(=O)C(C)NP(=O)(OC[C@H]1C/C1=C/n1cnc2c(N)nc(N)nc21)Oc1ccccc1	-	CEM + CEM-SS	-	-	3.5 µM
Cc1cn([C@H]2C[C@H](N=[N+]=[N-])[C@@H](CO)O2)c(=O)[nH]c1=O	-	H9	-	-	0.032 µg/mL
CC(C)c1cc2c(c(O)c1O)[C@@]1(C(=O)O)CCCC(C)(C)C1CC2	PR-L10I K14R R41K M46L I54V L63P A71V V82A L90M I93L	PBMC	-	clinical isolate 1(TM MDR X4)	>1 µM
O=C1N(CCCCCO)[C@H](Cc2ccccc2)[C@H](O)[C@@H](O)[C@@H](Cc2ccccc2)N1Cc1ccc2ccccc2c1	-	MT-2	-	-	<0.199 µM
CC1(C)O[C@@H]1COc1c2occc2cc2ccc(=O)oc12	-	H9	-	-	2.37 µg/mL
COc1ccc(S(=O)(=O)NC(N)=NCCC[C@H](NC(=O)N[C@@H](Cc2ccccc2)C(=O)OC(C)(C)C)C(=O)N[C@H](C(=O)N[C@H](C=O)Cc2ccccc2)C(C)C)cc1	-	MT-4	-	-	<1.7 µM
CCCCCCCCCCOCCC(=O)OC[C@H]1O[C@@H](n2cc(C)c(=O)[nH]c2=O)C[C@@H]1N=[N+]=[N-]	-	CEM + CEM-SS	-	IIIB	0.0014 µM
CC1(C)C(=O)CCC2[C@]34CC[C@]5(C)C(=O)CC[C@@]5(C)C3C=C[C@@]21OC4=O	-	C8166	-	IIIB	61.3 µg/mL
Cc1cn([C@H]2C[C@H](N=[N+]=[N-])[C@@H](COC(=O)CCCCCCCCCCOc3ccc(I)cc3)O2)c(=O)[nH]c1=O	-	CEM + CEM-SS	-	IIIB	0.131 µM
CC(C)(C)[C@H](N)C(=O)N[C@@H](Cc1ccccc1)[C@@H](O)[C@H](CO)[C@H](Cc1ccccc1)NC(=O)[C@@H](N)C(C)(C)C	-	MT-4	-	IIIB	>10 µM
O=C1N(Cc2ccc3[nH]c(=S)oc3c2)[C@H](Cc2ccccc2)[C@H](O)[C@@H](O)[C@@H](Cc2ccccc2)N1Cc1ccc2[nH]c(=S)oc2c1	-	MT-2	-	RF	<5.1 µM
Nc1ccn([C@H]2CC[C@@H](CO)O2)c(=O)n1	-	MT-2	-	RF	<0.1 µM
CCOC(=O)C(O)(c1c[nH]c2ccc(Cl)cc12)C(F)(F)F	-	TZM-bl	-	IIIB	0.249 µM
O=C(NCCCCCN1C(=O)N(CCCCCNC(=O)c2cccc(F)c2)[C@H](Cc2ccccc2)[C@H](O)[C@@H](O)[C@H]1Cc1ccccc1)c1cccc(F)c1	-	MT-2	-	-	<8.773 µM
CCOP(=O)(CO[C@@H]1C=C[C@H](n2cnc3c(N)ncnc32)C12CC2)OCC	-	-	-	WILD TYPE	80 µM
CC[C@]1(c2ccccc2)Oc2cccnc2-n2cccc2C1=O	-	Macrophage + Macrophages	-	IIIB	0.57 µM
Cc1cn([C@H]2C[C@H](N=[N+]=[N-])[C@@H](CO)O2)c(=O)[nH]c1=O	-	C8166	-	IIIB	0.003 µg/mL
CC(C)(C)[C@H](NC(=O)OCc1nc2ccccc2[nH]1)C(=O)N[C@@H](Cc1ccccc1)[C@H](O)[C@@H](CO)[C@H](Cc1ccccc1)NC(=O)[C@@H](NC(=O)OCc1nc2ccccc2[nH]1)C(C)(C)C	-	MT-4	-	IIIB	4.7 µM
Nc1ccn([C@H]2CC[C@@H](CO)O2)c(=O)n1	-	HT4LACZ-1 + HT4 LacZ-1	-	HX	0.8 µM
CO[C@@H]1O[C@]23CC(=O)C4[C@@]1(CC[C@]1(C)[C@@H]([C@H](C)CC(=O)C=C(C)C)CC[C@@]41C)C2CCC(=O)C3(C)C	-	C8166	-	IIIB	23.7 µg/mL

Again, the opening 4 rows:

SMILES | changes | cells | conditions | strain or isolate | value
CC(C)[C@H](NC(=O)OCc1ccccc1)C(=O)N[C@@H](Cc1ccccc1)[C@@H](O)[C@H](CO)[C@H](Cc1ccccc1)NC(=O)[C@@H](NC(=O)OCc1ccccc1)C(C)C | - | MT-4 | - | IIIB | 3.7 µM
CC(C)[C@H](NC(=O)NCc1ccccn1)C(=O)N[C@@H](Cc1ccccc1)C(=O)C(F)(F)CCc1ccccc1 | - | MT-4 | - | IIIB | 7.6 µM
Cc1cn([C@H]2C[C@H](N=[N+]=[N-])[C@@H](COC(=O)CCOCCCCCCCCCl)O2)c(=O)[nH]c1=O | - | CEM + CEM-SS | - | IIIB | 0.082 µM
O=C(NCCCCCN1C(=O)N(CCCCCNC(=O)c2ccncc2)[C@H](Cc2ccccc2)[C@H](O)[C@@H](O)[C@H]1Cc1ccccc1)c1ccncc1 | - | MT-2 | - | - | <9.903 µM

An empty or dashed field is not shown. Lines come from different laboratories, so protocols vary.